Pooled drug test results. Numbers come from NIAID ChemDB, via PubChem.

Shared fields: enzyme or target tests

Fold resistance: result on the changed form divided by that on wild type.

| smiles | organism | strain or isolate | changes | target | method | read-out | result |
|---|---|---|---|---|---|---|---|
| O=C(O)CNC(=O)c1cn2ccn(Cc3cccc(Cl)c3)c(=O)c2c(O)c1=O | HIV-1 | - | - | Integrase | ELISA | IC50 | 0.01–0.1 µM |
| CC(C)(C#Cc1ccc(NC(=O)CSc2nnnn2-c2ccc(C3CC3)cc2Cl)c(Cl)c1)NC(=O)CCC(=O)O | HIV-1 | - | RT-K103 Y181C | Reverse transcriptase | PicoGreen / fluorescence | IC50 | <1 µM |
| Nc1ccn([C@@H]2CS[C@H](COP(=O)(O)OP(=O)(O)OP(=O)(O)O)O2)c(=O)n1 | HIV | - | RT-K65R Q151M | Reverse transcriptase | radiometric | Ki | 0.418 µM |
| CC(C)(CCCNC(=O)c1cc(F)cc(F)c1)CN(C[C@@H](O)[C@H](Cc1ccccc1)NC(=O)O[C@H]1CO[C@H]2OCC[C@H]21)S(=O)(=O)c1ccc2c(c1)OCO2 | HIV-1 | - | - | Protease | fluorescence | Ki | <0.001 µM |
| CCCC[C@@H](CN[C@@H](CCC(N)=O)C(=O)N[C@@H](CCCN=C(N)N)C(N)=O)NC(=O)[C@H](CCCC)NC(=O)C(NC(=O)C(NC(C)=O)[C@@H](C)O)[C@@H](C)CC | HIV | - | PR-K45I | Protease | HPLC | IC50 | >2.17 µM |
| COc1ccnc2[nH]cc(C(=O)C(=O)N3CCN(C(=O)c4ccccc4)C[C@H]3C)c12 | HIV-1 | LAI | GP120-M434V | gp120 | ELISA | fold resistance | 67 |
| O=c1c(-c2nccs2)cn2ccn(Cc3ccc(F)cc3)c(=O)c2c1O | HIV-1 | - | - | Integrase | ELISA | IC50 | <0.01 µM |
| CC(C)(C)c1ccc(-n2nnnc2SCC(=O)Nc2ccc(NC(=O)Cc3ccccc3O)cc2Cl)c(Cl)c1 | HIV-1 | WT | - | Reverse transcriptase | PicoGreen / fluorescence | IC50 | <1 µM |
| CC(C)(C)CC(=O)NCCC(C)(C)CN(C[C@@H](O)[C@H](Cc1ccccc1)NC(=O)O[C@H]1CO[C@H]2OCC[C@H]21)S(=O)(=O)c1ccc2c(c1)OCO2 | HIV-1 | - | - | Protease | fluorescence | Ki | <0.001 µM |
| CC(C)=CCN1Cc2cccc3[nH]c(=S)n(c23)C[C@@H]1C | HIV | - | RT-K263V | Reverse transcriptase | nucleotide incorporation | IC50 | 0.5 µM |
| CNC(=S)NCCC(C)(C)CN(C[C@@H](O)[C@H](Cc1ccccc1)NC(=O)O[C@H]1CO[C@H]2OCC[C@H]21)S(=O)(=O)c1ccc2c(c1)OCO2 | HIV-1 | - | - | Protease | fluorescence | Ki | <0.001 µM |
| CN(C)CCCC(=O)NC(C)(C)C#Cc1ccc(NC(=O)CSc2nnnn2-c2ccc(C3CC3)cc2Cl)c(Cl)c1 | HIV-1 | - | RT-K103 Y181C | Reverse transcriptase | PicoGreen / fluorescence | IC50 | <1 µM |
| CC(C)(CCCCNC(=O)CN)CN(C[C@@H](O)[C@H](Cc1ccccc1)NC(=O)O[C@H]1CO[C@H]2OCC[C@H]21)S(=O)(=O)c1ccc2c(c1)OCO2 | HIV-1 | - | - | Protease | fluorescence | Ki | <0.001 µM |
| CC(C)(C)c1ccc(-n2nnnc2SCC(=O)Nc2ccc(C(=O)NCc3cccnc3)cc2Cl)c(Cl)c1 | HIV-1 | - | RT-K103 Y181C | Reverse transcriptase | PicoGreen / fluorescence | IC50 | <1 µM |
| O=C1c2c(O)c(=O)c(Br)cn2CC(O)N1Cc1cccc(Cl)c1 | HIV-1 | - | - | Integrase | ELISA | IC50 | 0.1–1 µM |
| CCCCS(=O)(=O)NCCCC(C)(C)CN(C[C@@H](O)[C@H](Cc1ccccc1)NC(=O)O[C@H]1CO[C@H]2OCC[C@H]21)S(=O)(=O)c1ccc2c(c1)OCO2 | HIV-1 | - | - | Protease | fluorescence | Ki | <0.001 µM |
| CNC(=O)c1cn2c(c(O)c1=O)C(=O)N(Cc1ccc(F)cc1)CC2 | HIV-1 | - | - | Integrase | ELISA | IC50 | 0.1–1 µM |
| CC(C)(CCCCNC(=O)NCc1ccccc1)CN(C[C@@H](O)[C@H](Cc1ccccc1)NC(=O)O[C@H]1CO[C@H]2OCC[C@H]21)S(=O)(=O)c1ccc2c(c1)OCO2 | HIV-1 | - | - | Protease | fluorescence | Ki | <0.001 µM |

Conditions beyond the fields shown may differ between rows. a–b is a range or a potency band. ICn: concentration for n% inhibition. Blank or dashed fields: not listed here.